Earlier results, collected in patent US20230042509A1, “TREATMENT FOR DISEASES CAUSED BY RNA VIRUSES” (Amerimmune LLC, priority 2021, published 2023).

Test system: COVID-19
Settings: moderate to severe COVID-19; cited from earlier work

B1: eculizumab: targeted therapy reported to reduce inflammatory markers and CRP in moderate to severe COVID-19 (antibody, chains of the INN, looked up)
heavy: QVQLVQSGAEVKKPGASVKVSCKASGYIFSNYWIQWVRQAPGQGLEWMGEILPGSGSTEYTENFKDRVTMTRDTSTSTVYMELSSLRSEDTAVYYCARYFFGSSPNWYFDVWGQGTLVTVSSASTKGPSVFPLAPCSRSTSESTAALGCLVKDYFPEPVTVSWNSGALTSGVHTFPAVLQSSGLYSLSSVVTVPSSNFGTQTYTCNVDHKPSNTKVDKTVERKCCVECPPCPAPPVAGPSVFLFPPKPKDTLMISRTPEVTCVVVDVSQEDPEVQFNWYVDGVEVHNAKTKPREEQFNSTYRVVSVLTVLHQDWLNGKEYKCKVSNKGLPSSIEKTISKAKGQPREPQVYTLPPSQEEMTKNQVSLTCLVKGFYPSDIAVEWESNGQPENNYKTTPPVLDSDGSFFLYSRLTVDKSRWQEGNVFSCSVMHEALHNHYTQKSLSLSLG
light: DIQMTQSPSSLSASVGDRVTITCGASENIYGALNWYQQKPGKAPKLLIYGATNLADGVPSRFSGSGSGTDFTLTISSLQPEDFATYYCQNVLNTPLTFGQGTKVEIKRTVAAPSVFIFPPSDEQLKSGTASVVCLLNNFYPREAKVQWKVDNALQSGNSQESVTEQDSKDSTYSLSSTLTLSKADYEKHKVYACEVTHQGLSSPVTKSFNRGEC
  inflammatory markers and C-reactive protein (CRP): reduced
